According to patent publication US20080138835A1 (priority 2004, published 2008):
≈ marks a conversion by molar mass, not a printed value.

Key:
S. pyogenes = test: Serial passages in drug-containing broth (MIC); assay type: cell-based
S. epidermidis = test: Serial passages in drug-containing broth (MIC); assay type: cell-based
S. hemolyticus = test: Serial passages in drug-containing broth (MIC); assay type: cell-based; details: S. hemolyticus NRS116, MRSH, MupS

`C/C(=C\C(=O)OCCCCCCCCC(=O)O)C[C@@H]1OC[C@H](C[C@@H]2O[C@H]2[C@@H](C)[C@H](C)O)[C@@H](O)[C@H]1O` [Mupirocin] was tested. Which “susceptibility of laboratory-generated Compound 1-resistant mutants (cross-resistance)” value (S. aureus mutants) did it give?
Its value is “still susceptible”.

And the “MIC After 20 passages” value (S. pyogenes; S. pyogenes ATCC19615, EryS)?
The value was 4 µg/mL (≈ 7.99 µM).

And the “MIC After 20 passages” value (S. pyogenes; S. pyogenes MB000143, EryR)?
The value was 0.5 µg/mL (≈ 0.999 µM).

What about the “MIC After 20 passages” value (S. epidermidis; S. epidermidis 936528, MRSE, HL-MupR) of the same compound?
Its value is 4,096 μg/ml.

What about the “MIC After 20 passages” value (S. epidermidis; S. epidermidis 936606, MRSE, MupS) of the same compound?
Its value is 2 µg/mL (≈ 3.99 µM).

And the “MIC After 20 passages” value (S. hemolyticus)?
Its value is 1 µg/mL (≈ 2 µM).
